Results of unrelated studies side by side (data: NIAID ChemDB).

Common to all: host cell toxicity; cell line: VERO; measure: CC50

CCn: concentration that lowers growth or viability of the cells by n%. Conditions beyond the fields shown may differ between rows. An empty or dashed field is not shown.

smiles	method	value
COc1ccc2c(c1)[nH]c1c3[nH]c4cc(OC)ccc4c3c3c(c21)C(=O)NC3=O		<8 µM
O=c1cnn([C@@H]2O[C@H](CO)[C@@H](O)[C@H]2O)c(=O)[nH]1		0.08 µg/mL
O=C1CCCN2C(CC1)C[C@@]13CN4CCCC/C=C/CC[C@@](O)(C=C(c5nccc6c5[nH]c5c(O)cccc56)[C@H]1CC4)[C@@H]23		>4.76 µg/mL
COc1ccc(COc2ccc(-c3nc(N)nc(N)n3)cc2OC)cc1	MTT	388 µM
Nc1ccc2nc3ccc(N)cc3[n+](-c3ccccc3)c2c1		25.11 µg/mL
CC(=O)O[C@H]1C[C@H](n2cc(/C=C/Br)c(=O)[nH]c2=O)O[C@@H]1COP1(=O)OCc2ccccc2O1		47.6 µg/mL
COc1ccc(-c2nc(N)nc(N)n2)cc1OCc1cccc(Cl)c1	MTT	285 µM
O=C1c2ccccc2C(=O)c2sc(Nc3ccccc3Cl)nc21		2.8 µg/mL
COc1ccc(-c2c(C#N)c(NC(=S)Nc3ccccc3)nc3[nH]c(=O)[nH]c(=O)c23)cc1OC		80 µg/mL
Cc1cn([C@@H]2O[C@H](CO)C[C@H]2F)c(=O)[nH]c1=O		>100 µM
CO[C@H]1/C=C/O[C@@]2(C)Oc3c(C)c(O)c4c(c3C2=O)C(=O)C(CO)=C(NC(=O)/C(C)=C\C=C\[C@H](C)[C@H](O)[C@@H](C)[C@@H](O)[C@@H](C)[C@H](OC(C)=O)[C@@H]1C)C4=O		79.62 µg/mL
CCn1cc(C(=O)N(C)C)c(=O)c2ccc(-c3ccncc3)cc21		>100 µg/mL
CC(Oc1ccc(-c2nc(N)nc(N)n2)cc1)c1ccc(Br)cc1	MTT	282.2 µM
CCN(CC)CCN(C)c1ccc(CO)c2c1C(=O)c1ccccc1S2=O		4.53 µg/mL
CC[C@@H](C(C)C)[C@H](O)[C@@H](O)[C@@H](C)[C@H]1CC[C@H]2[C@@H]3CC(=O)[C@@]4(O)C[C@H](O)[C@H](O)C[C@]4(C)[C@H]3CC[C@]12C	MTT	364 µM
N#Cc1c(NC(=O)Nc2ccccc2)nc2[nH]c(=O)[nH]c(=O)c2c1-c1ccc(Cl)cc1		70 µg/mL
CCn1cc(C(N)=O)c(=O)c2ccc(-c3ccccc3)cc21		>50 µg/mL
CC[C@H](/C=C/[C@@H](C)[C@H]1CC[C@H]2[C@@H]3CC(=O)[C@@]4(Cl)C[C@@H](F)CC[C@]4(C)[C@H]3CC[C@]12C)C(C)C	MTT	858 µM
Nc1nc(N)nc(-c2ccc(OCc3ccccc3)cc2)n1	MTT	464 µM
CC[C@@H](C(C)C)[C@H](O)[C@@H](O)[C@@H](C)[C@H]1CC[C@H]2[C@@H]3CC(=O)[C@@]4(O)C[C@@H](F)CC[C@]4(C)[C@H]3CC[C@]12C	MTT	250 µM
Cc1cccc2c1OP(=O)(OCCOCn1cnc3c(=O)[nH]c(N)nc31)OC2		>314 µM
CO[C@H]1/C=C/O[C@@]2(C)Oc3c(C)c(O)c4c(O)c(c(/C=N/N5CCN(C)CC5)c(O)c4c3C2=O)NC(=O)/C(C)=C\C=C\[C@H](C)[C@H](O)[C@@H](C)[C@@H](O)[C@@H](C)[C@H](OC(C)=O)[C@@H]1C	fluorescence	120 µM
COc1cc(/C=C2\CC/C(=C\c3ccc(OCCN(C)C)c(OC)c3)C2=O)ccc1OCCN(C)C	MTT	>9 µM
Cc1nn2c(=O)c3cnn(-c4ccccc4)c3nc2n1-c1ccccc1		100 µg/mL
COC(=O)N[C@H](C(=O)N1CCC[C@H]1c1nc2ccc(-c3csc4c(-c5ccc(-c6cnc([C@@H]7CCCN7C(=O)[C@H](NC(=O)OC)c7ccccc7)[nH]6)cc5)csc34)cc2[nH]1)C(C)C	resazurin	>50 µM
COc1ccc(COc2ccc(-c3nc(N)nc(N)n3)cc2)cc1	MTT	368 µM
Cc1nc(-c2ccc(F)cc2)sc1-c1csc(-c2ccc(F)cc2)n1	sulforhodamine	>80 µM
Cc1cccc2c1OP(=O)(OC[C@H]1O[C@@H](n3cc(/C=C/Br)c(=O)[nH]c3=O)C[C@@H]1OC(=O)[C@@H]1CCCN1)OC2		88.9 µg/mL
O=C1/C(=C/c2ccc(OCCCN3CCOCC3)cc2)CCC/C1=C\c1ccc(OCCCN2CCOCC2)cc1	MTT	>9 µM
Nc1cc2nc3ccccc3sc-2cc1=O		1.7 µg/mL
N#Cc1c(-c2ccc(Br)cc2)c2c(=O)[nH]c(=O)[nH]c2[nH]c1=O		150 µg/mL
CC[C@@H](C(C)C)[C@H](O)[C@@H](O)[C@@H](C)[C@H]1CC[C@H]2[C@@H]3CC(=O)[C@H]4C[C@@H](Br)CC[C@]4(C)[C@H]3CC[C@]12C	MTT	152 µM
CCn1cc(C(N)=O)c(=O)c2ccc(-c3ccc([N+](=O)[O-])cc3)cc21		>100 µg/mL
CC[C@@H](C(C)C)[C@@H](O)[C@H](O)[C@@H](C)[C@H]1CC[C@H]2[C@@H]3CC(=O)[C@@]4(O)C[C@@H](O)CC[C@]4(C)[C@H]3CC[C@]12C	MTT	819 µM
CO[C@H]1/C=C/O[C@@]2(C)Oc3c(C)c(O)c4c(O)c(c(C5SCCS5)c(O)c4c3C2=O)NC(=O)/C(C)=C\C=C\[C@H](C)[C@@H]2OC(C)(C)O[C@H]([C@@H](C)[C@H](O)[C@@H]1C)[C@@H]2C		14.34 µg/mL
Cc1cccc2c1OP(=O)(OC[C@H]1O[C@@H](n3cc(/C=C/Br)c(=O)[nH]c3=O)C[C@@H]1OC(=O)C(C)(C)C)OC2		33.7 µg/mL
CC[CH2][Sn]([Br])([Br])[CH2]CC.c1cnc2c(c1)ccc1cccnc12		0.25 µg/mL
CC[C@@H](C(C)C)[C@@H](O)[C@H](O)[C@@H](C)[C@H]1CC[C@H]2[C@@H]3CC(=O)[C@@]4(O)C[C@@H](F)CC[C@]4(C)[C@H]3CC[C@]12C	MTT	42 µM
O=C1/C(=C/c2ccc(OCCCN3CCOCC3)cc2)CC/C1=C\c1ccc(OCCCN2CCOCC2)cc1	MTT	>9 µM
CCn1cc(C(N)=O)c(=O)c2ccc(-c3cc(C)nc(C)c3)cc21		>12.5 µg/mL
COC(=O)n1c(=O)nc2c3c(ncn21)Oc1c(c(-c2ccccc2)nn1-c1ccccc1)C3c1ccc(Cl)cc1		0.23 µg/mL
COc1cc(/C=C2\CC/C(=C\c3ccc(OCCCn4ccnc4C)c(OC)c3)C2=O)ccc1OCCCn1ccnc1C	MTT	>9 µM
CCN(CC)CCNc1ccc(C)c2sc3cccc(O)c3c(=O)c12		1.23 µg/mL
COc1ccc(-c2c(C#N)c(NC(=S)Nc3ccccc3)nc3[nH]c(=O)[nH]c(=O)c23)c(OC)c1		50 µg/mL
COc1ccc2[nH]c3c4[nH]c5ccc(OC)cc5c4c4c(c3c2c1)C(=O)NC4=O		>60 µM
CO[C@H]1/C=C/O[C@@]2(C)Oc3c(C)c(O)c4c(O)c(c(/C=N/N5CCN(C)CC5)c(O)c4c3C2=O)NC(=O)/C(C)=C\C=C\[C@H](C)[C@H](O)[C@@H](C)[C@@H](O)[C@@H](C)[C@H](OC(C)=O)[C@@H]1C	MTT	512 µM
CC[C@H](/C=C/[C@@H](C)[C@H]1CC[C@H]2[C@@H]3CC=C4C[C@@H](O)CC[C@]4(C)[C@H]3CC[C@]12C)C(C)C	MTT	479 µM
O=C1NC(=O)c2c1c1c3ccccc3[nH]c1c1[nH]c3ccccc3c21		>125 µM
Nc1nc(NC2CC2)c2ncn([C@H]3C=C[C@@H](CO)C3)c2n1		480 µM
CCOC(=O)C(NC(=O)c1cccc(Cl)c1)(N1CCN(c2cc3c(cc2F)c(=O)c(C(=O)O)cn3CC)CC1)C(F)(F)F		>10 µg/mL
Cc1cccc2c1[nH]c1c3[nH]c4c(C)cccc4c3c3c(c21)C(=O)NC3=O		>31 µM
O=C(Nn1c(Nc2ccccc2)nc2c(cnn2-c2ccccc2)c1=O)c1cccs1		220 µg/mL
Cc1ccc(C(=O)Nc2ccc(S(=O)(=O)O)c3cc(S(=O)(=O)O)cc(S(=O)(=O)O)c23)cc1NC(=O)c1cccc(NC(=O)Nc2cccc(C(=O)Nc3cc(C(=O)Nc4ccc(S(=O)(=O)O)c5cc(S(=O)(=O)O)cc(S(=O)(=O)O)c45)ccc3C)c2)c1		1821 µg/mL
Nc1ncnc2c1ncn2[C@@H]1O[C@H](CO)C[C@@H]1O		30 µg/mL
CCn1cc(C(=O)NCCN)c(=O)c2ccc(-c3ccncc3)cc21		>100 µg/mL
COc1cc(-c2nc(N)nc(N)n2)ccc1OCc1cccc(Cl)c1	MTT	293 µM
CN1Cc2c(ccc3c2OCO3)-c2ccc3cc4c(cc3c21)OCO4	sulforhodamine	>3.33 µg/mL
Nc1nc(N)nc(-c2ccc(OCc3ccc(F)cc3)cc2)n1	MTT	337 µM
O=C1NC(=O)c2c1c1c([nH]c3cccc(F)c31)c1[nH]c3cccc(F)c3c21		>125 µM
COc1ccc2c(c1)COP(=O)(OC[C@H]1O[C@@H](n3cc(/C=C/Br)c(=O)[nH]c3=O)C[C@@H]1O)O2		>128 µg/mL
CO[C@@]12[C@H](COC(N)=O)C3=C(C(=O)C(C)=C(N)C3=O)N1C[C@H]1[C@@H]2N1C(=O)c1ccc(Cl)cc1		1.36 µg/mL
Cc1nc(-c2ccccc2)sc1-c1csc(-c2cccc(Cl)c2)n1	sulforhodamine	>80 µM
C=CCn1c(=O)c(C(=O)Nc2nc(C34CC5CC(CC(C5)C3)C4)cs2)c(O)c2ccccc21		2.4 µg/mL
CC(=O)/C(N=Nc1ccc(C(=O)N/N=C/c2ccc([N+](=O)[O-])o2)cc1)=C(\C)O		0.32 µg/mL
C[C@]12CCC3C(CC[C@H]4C[C@@H](O)CC[C@]34C)C1[C@H](O)CC2=O	MTT	435.6 µM
Cc1nn(C(=S)S)c(C)c1N=Nc1ccccc1Cl		>10 µg/mL
Nc1nc(F)nc2c1ncn2[C@@H]1O[C@H](CO)[C@H]1O		201 µg/mL
Cc1ccc(NC(=S)NC(=O)C(C)Oc2ccccc2)cc1Cl		>10 µg/mL
O=c1[nH]c(=O)n([C@H]2C[C@H](O)[C@@H](CO)O2)cc1/C=C/Br		32 µg/mL
C[C@]12CCC3C(CC[C@H]4C[C@@H](O)CC[C@]34C)C1C=CC21OCCO1	MTT	487.5 µM
Nc1c2c(-c3ccc(Br)cc3)c3c(=O)[nH]c(=O)[nH]c3nc2nc(=S)n1-c1ccccc1		50 µg/mL
Cc1nc(-c2ccccc2)sc1-c1csc(-c2ccc(F)cc2)n1	sulforhodamine	>80 µM
O=c1c2cnn(-c3ccccc3)c2nc(Nc2ccccc2)n1/N=C/c1ccc(Cl)cc1		220 µg/mL
Nc1nc2c(ncn2COCCOP2(=O)OCc3ccccc3O2)c(=O)[nH]1		>325 µM
CCn1cc2c(=O)[nH]nc-2c2ccc(-c3ccncc3)cc21		>50 µg/mL
CCCCCCCCN1COC2CCc3ccccc3C21		>10 µg/mL
Cc1nc(-c2ccccc2)sc1-c1csc(-c2ccc(F)c(Cl)c2)n1	sulforhodamine	>80 µM
C=C(C)C1CC=C(C)/C(=N/NC(=O)c2cccnc2)C1		113 µg/mL
N#Cc1c(N)nc2[nH]c(=O)[nH]c(=O)c2c1-c1cccc([N+](=O)[O-])c1		170 µg/mL
O=c1c2cnn(-c3ccccc3)c2nc2n1N=C(c1ccc(F)cc1)CN2c1ccccc1		220 µg/mL
C[C@]12CCC3C(CC[C@H]4C[C@@H](O)CC[C@]34C)C1[C@@H](O)CC2=O	MTT	1108 µM
Nc1nc(N)nc(-c2ccc(OCc3ccc(Cl)cc3Cl)cc2)n1	MTT	364 µM
O=C1NC(=O)c2c1c1c3ccccc3[nH]c1c1c2c2ccccc2n1Cc1ccccc1		<31 µM
Nc1nc2c(ncn2CCC(CO)CO)c(=O)[nH]1		>505 µM
C[C@]12CC[C@H](O)CC1=CC[C@@H]1[C@@H]2CC[C@@]2(C)[C@H]1CCC21OCCO1	MTT	1955 µM
C=CCN(CC=C)CCN1CCN(CCCN2c3ccccc3Sc3ccc(C(F)(F)F)cc32)CC1.Cl.Cl.Cl		4.5 µg/mL
Cc1ccc(COc2ccc(-c3nc(N)nc(N)n3)cc2)cc1	MTT	495 µM
O=C1C2=Nc3ccccc3C(O)N2c2ccccc21		5.4 µg/mL
O=c1c2cnn(-c3ccccc3)c2nc2n(-c3ccccc3)cnn12		220 µg/mL
Cc1c2c(c(C)c3c1[nH]c1ccccc13)C(C#N)N(C(=O)c1ccccc1)C=C2		0.3 µg/mL
C[C@@]1(CO)[C@H](O)CC[C@@]2(C)[C@H]1CC[C@H]1C[C@@H]3C[C@@]12CC[C@]3(O)CO		220 µg/mL

The last 9 rows once more:

smiles,method,value
O=C1NC(=O)c2c1c1c3ccccc3[nH]c1c1c2c2ccccc2n1Cc1ccccc1,,<31 µM
Nc1nc2c(ncn2CCC(CO)CO)c(=O)[nH]1,,>505 µM
C[C@]12CC[C@H](O)CC1=CC[C@@H]1[C@@H]2CC[C@@]2(C)[C@H]1CCC21OCCO1,MTT,1955 µM
C=CCN(CC=C)CCN1CCN(CCCN2c3ccccc3Sc3ccc(C(F)(F)F)cc32)CC1.Cl.Cl.Cl,,4.5 µg/mL
Cc1ccc(COc2ccc(-c3nc(N)nc(N)n3)cc2)cc1,MTT,495 µM
O=C1C2=Nc3ccccc3C(O)N2c2ccccc21,,5.4 µg/mL
O=c1c2cnn(-c3ccccc3)c2nc2n(-c3ccccc3)cnn12,,220 µg/mL
Cc1c2c(c(C)c3c1[nH]c1ccccc13)C(C#N)N(C(=O)c1ccccc1)C=C2,,0.3 µg/mL
C[C@@]1(CO)[C@H](O)CC[C@@]2(C)[C@H]1CC[C@H]1C[C@@H]3C[C@@]12CC[C@]3(O)CO,,220 µg/mL